The entries are a selection whose mix differs from that of the whole data set. Inconclusive results are not listed. Calls of active or inactive are those of the source. Calls follow the shape of the full dose curve; tested in HEK293T cells.
Test: High Throughput Screening for Foot and Mouth Disease Virus Antivirals; also: read-out not given here; nearly all actives have a fitted effect of over 45% in size
Details: FMDV antiviral cell-based qHTS; series mostly up to 57.9 µM; activity change, negative = inhibition: at the top concentration
% is scaled to controls: 0 for no effect and ±100 for the full control effect.

Compound	activity change, negative = inhibition	Potency
O=C(OC1CN2CCC1CC2)c1ccccc1 (centres undefined)	inactive: -10.2%	
O=P1(N(CCCl)CCCl)OCCC2CCCCN21 (centres undefined)	inactive: 0.551%	
O=C(NC1CCS(=O)(=O)C1)NP(=S)(Oc1ccccc1)Oc1ccccc1 (centres undefined)	inactive: 107%	
CCNC(=S)/N=C(\N)N[N+](=O)[O-]	inactive: -10.4%	
Cc1ccc(NP(=O)(Oc2cccc(C)c2)Oc2cccc(C)c2)nc1	inactive: 22.8%	
c1ccc(-c2nn[nH]n2)c(-c2nn[nH]n2)c1	inactive: -3.2%	
CN(C(=O)Cc1ccc(Cl)c(Cl)c1)[C@H]1CC[C@@]2(CCCO2)C[C@@H]1N1CCCC1	inactive: -13.8%	
O=[N+]([O-])c1ccc2c(c1)nnn2O	inactive: 2.56%	
CN(C(=O)Cc1ccccc1)[C@@H]1CC[C@]2(CCCO2)C[C@H]1N1CCCC1	inactive: -12.9%	
N#CCCN(C(=O)COC(=O)C(O)(c1ccccc1)c1ccccc1)c1ccc(F)cc1	inactive: -22.7%	
O=C(O)COc1ccc([As](=O)(O)O)cc1[N+](=O)[O-]	inactive: -6.22%	
Nc1ccccc1[As](=O)(O)c1ccccc1	inactive: 3.75%	
O=P(Nc1nccs1)(Oc1ccccc1)Oc1ccccc1	inactive: 0%	
O=P(Nc1nccs1)(c1ccccc1)c1nc2ccccc2s1 (centres undefined)	inactive: -0.486%	
CCOP(=O)(Nc1cccc2ccccc12)OCC	inactive: -9.6%	
CCCOP(=S)(Nc1nc(N)cc(=O)[nH]1)OCCC	inactive: 7.06%	
Nc1cccc2c([As](=O)(O)O)cccc12	inactive: -8.68%	
Cc1ccc(NCCc2c([N+](=O)[O-])cc([N+](=O)[O-])cc2[N+](=O)[O-])cc1	inactive: -3.96%	
Cc1cccc(OCC(=O)OC2CN3CCC2CC3)c1 (centres undefined)	inactive: -17.5%	
O=[As](O)(c1cccc(O)c1)c1cccc(O)c1	inactive: -8.69%	
CS(=O)(=O)c1ccc(Cl)c(NC(=O)COC(=O)C(O)(c2ccccc2)c2ccccc2)c1	inactive: 0%	
O=[As](O)(O)c1cccnc1	inactive: -5.21%	

Compound	activity change, negative = inhibition	Potency
COc1cc(C(=O)NCC2(N3CCOCC3)CCCCC2)cc(Cl)c1OC(C)C	inactive: 3.92%	
O=C(OC1CN2CCC1CC2)c1ccc(Cl)cc1 (centres undefined)	inactive: -10.5%	
CC1(CBr)Cn2c(nc3ccccc3c2=O)S1 (centres undefined)	inactive: -4.65%	
Cc1ccc(S(=O)(=O)N(CCCN)CCCc2c(C)nc(N)[nH]c2=O)cc1.O=[N+]([O-])c1cc([N+](=O)[O-])c(O)c([N+](=O)[O-])c1	inactive: -5.21%	
CN(C(=O)Cc1ccc(Cl)c(Cl)c1)[C@@H]1CCCC[C@H]1N1CCCC1	inactive: 9.31%	
CC(C)/C=N\N=C(\N)N[N+](=O)[O-]	inactive: 15.5%	
COc1ccccc1CNC(=O)COC(=O)C(O)(c1ccccc1)c1ccccc1	inactive: -18.6%	
CC(C)(C)C(=O)NC(Sc1ncccn1)C(Cl)(Cl)Cl (centres undefined)	inactive: -23.3%	
Clc1n[nH]nc1-c1nn[nH][15n]1	inactive: -0.709%	
O=P1(N(CCCl)CCCl)NCCC(C(F)(F)F)O1 (centres undefined)	inactive: -10%	
CCOP(=O)(Nc1ccc(C)cn1)OCC	inactive: 1.59%	
CN(CCCl)Cc1cc(Cl)c(NC2=NCCN2)c(Cl)c1		inactive
Nc1ccc(CCCCOc2ccccc2)cc1.O=[N+]([O-])c1cc([N+](=O)[O-])c(O)c([N+](=O)[O-])c1	inactive: 32%	
CCOP(=O)(NC(=NC(C)c1ccccc1)NC(C)c1ccccc1)OCC (centres undefined)	inactive: -1.38%	
O=P1(Nc2ccccn2)COc2ccccc2OC1	inactive: 24.3%	
O=C(O)C(O)c1ccc(N(CCCl)CCCl)cc1.c1ccncc1 (centres undefined)	inactive: -0.245%	
O=[As](O)(c1cccs1)c1cccs1	inactive: -3.79%	
Cc1ccc(OCC(=O)OC2CN3CCC2CC3)cc1 (centres undefined)	inactive: -19.4%	
NS(=O)(=O)c1cccc(NC(=O)COC(=O)C(O)(c2ccccc2)c2ccccc2)c1	inactive: -23.4%	
O=P1(Nc2ccc(Br)cn2)COc2ccccc2OC1	inactive: 54.3%	
Nc1cccc([As](=O)(O)c2ccccc2)c1	inactive: -6.58%	
CN1CCCCC1COC(=O)C1(O)c2ccccc2CCc2ccccc21 (centres undefined)	inactive: -26.2%	
